Test results published in patent US20250283886A1.

Experiments:
[1] = target: … peptide containing N-terminal phenylalanine; assay: table of pulse statistics of the single-molecule recognition experiment
[2] = target: … peptide containing N-terminal phenylalanine; assay: single-molecule recognition of immobilized peptide, 500 nM of each binder
[3] = target: polypeptide of sequence …; assay: pulse duration histogram of interval Y of sequencing run 1 (with VPr), n=538
[4] = target: T1, … after VPr has further cut W and two alanine residues (N-terminal F); assay: pulse duration histogram of interval F of sequencing run 2 (with VPr), n=121
[5] = target: T2, … after VPr has cut Y and two alanine residues (N-terminal W); assay: pulse duration histogram of interval W of sequencing run 2 (with VPr), n=265
[6] = target: polypeptide of sequence …; assay: pulse duration histogram of interval Y of sequencing run 2 (with VPr), n=391
[7] = target: T2, … after VPr has cut Y and two alanine …; assay: pulse duration histogram of interval W of sequencing run 1 (with VPr), n=323
[8] = target: T1, … after VPr has further cut W and two …; assay: pulse duration histogram of interval F of sequencing run 1 (with VPr), n=61

B1: at ClpS2-V1 (Agrobacterium tumifaciens ClpS2 variant 1) labeled with Cy3B (protein)
chain: MSDSPVDLKPKPKVKPKLERPKLYKVMLLNDDYTPMSFVTVVLKAVFRMSEDTGRRVMMTAHRFGSAVVVVCERDIAETKAKEATDLGKEAGFPLMFTTEPEE
Q: Which results are given for B1?
A: N pulses [1]: 169; median pulse width [1]: 0.35 s; mean pulse duration [2]: 1 s; pulse rate [2]: 14.1 pulses/min

B2: ATTO 542-labeled A. Tumefaciens ClpS2-V1, Q8UD95 1-103 (protein)
chain: B1 chain
Q: Which results are given for B2?
A: pulse duration M [3]: 0.26 s; pulse duration Mo [3]: 0.04 s; pulse duration µ [3]: 0.38 s; pulse duration M [4]: 0.96 s; pulse duration Mo [4]: 0.11 s; pulse duration µ [4]: 1.17 s; pulse duration M [5]: 0.09 s; pulse duration Mo [5]: 0.04 s; pulse duration µ [5]: 0.12 s; pulse duration M [6]: 0.52 s; pulse duration Mo [6]: 0.24 s; pulse duration µ [6]: 0.74 s; pulse duration M [7]: 0.09 s; pulse duration Mo [7]: 0.04 s; pulse duration µ [7]: 0.11 s; pulse duration M [8]: 1.65 s; pulse duration Mo [8]: 1.94 s; pulse duration µ [8]: 1.81 s
